Results of unrelated studies side by side (data: NIAID ChemDB).

All rows: whole-cell or culture tests; agent: Mycobacterium avium

MIC50, MIC90 and the like: level of inhibition, or share of isolates inhibited. ECn: concentration that inhibits the pathogen or its effect by n%. Lines come from different laboratories, so protocols vary. An empty or dashed field is not shown. a–b is a range or a potency band.

SMILES,strain or isolate,read by,setting,read-out,value
CCCCOc1ccc(NC(=O)OCC[NH+]2CCCC2)cc1,MY330/88,-,-,MIC,125 µM
COc1cccc(CSc2ncn[nH]2)c1,MY330/88,-,-,MIC,500 µM
O=C(NCc1ccccc1)c1ncccc1S,CNCTC MY330/88,-,-,MIC,8 µM
CCCCCCOc1ccc(NC(=O)OCCN(C)C)cc1,MY330/88,-,-,MIC,8 µM
O=C(NCc1ccc([N+](=O)[O-])cc1)c1ncccc1S,CNCTC MY330/88,-,-,MIC,16 µM
Fc1cc(Br)ccc1Nc1nnc(-c2ccncc2)o1,MY330/88,broth dilution,14 d,MIC100,>125 µM
O=c1[nH]c(=O)n([C@H]2C[C@H](O)[C@@H](CO)O2)cc1Cl,ATCC 25291,-,-,EC50,>50 µg/mL
Cc1ccc(-n2c(=O)oc3ccc(C)cc3c2=S)cc1,MY330/88,-,21 d,MIC,1 µM
CCS/C(N)=N/N=C/c1nc2ccccc2n1C,CNCTC MY66/72,-,-,MIC,32 µM
CCCCCCOc1cccc(NC(=O)OCCN2CCCCC2)c1,MY330/88,-,-,MIC,32 µM
CCS/C(N)=N/N=C/c1ccccc1O,CNCTC MY80/72,-,-,MIC,>1000 µM
O=c1oc2ccc(F)cc2c(=S)n1-c1ccc(C(F)(F)F)cc1,MY330/88,-,14 d,MIC,32 µM
Cc1ccc2nc(SCc3cccc([N+](=O)[O-])c3)[nH]c2c1,MY330/88,-,-,MIC,32 µM
COc1ccc(NC(=O)NNC(=O)c2ccncc2)cc1,MY330/88,broth dilution,14 d,MIC100,32 µM
O=C(Nc1ccc([N+](=O)[O-])cc1)c1ccccc1O,CNCTC MY330/88,-,-,MIC,31 µM
Cc1ccn2c(C(=O)NCc3ccc(N4CCC(c5ccc(OC(F)(F)F)cc5)CC4)cc3)c(C)nc2c1,2151,resazurin,-,MIC,<2 µM
O=c1oc2ccc(Cl)cc2c(=O)n1-c1ccc(F)cc1,CNCTC MY330/88,-,-,MIC,16 µM
Cc1ccc2nc(SCc3cccc(C#N)c3)[nH]c2c1,MY330/88,-,-,MIC,62 µM
Cc1ccn2c(C(=O)NCc3ccc4c(c3)CCO4)c(C)nc2c1,2151,resazurin,-,MIC,2–10 µM
O=c1ccn([C@H]2CC[C@@H](CO)O2)c(=O)[nH]1,ATCC 25291,-,-,EC50,>50 µg/mL
Cc1ccc2oc(=O)n(-c3ccccc3)c(=S)c2c1,MY330/88,-,21 d,MIC,4 µM
C(=C\c1ccccc1)/CCNc1cccc(N2CCSCC2)c1,103317,-,-,MIC,4 µg/mL
O=C(NNC(=O)c1ccncc1)Nc1ccc(F)c(Cl)c1,MY330/88,broth dilution,14 d,MIC100,>62.5 µM
CCCCOc1cccc(NC(=O)OC(C)CN2CCCCC2)c1,MY330/88,-,-,MIC,62.5 µM
O=c1[nH]c(=O)n([C@@H]2O[C@H](CO)[C@@H](O)[C@H]2O)cc1/C=C/Br,ATCC 25291,-,-,EC50,>50 µg/mL
c1ccc(-c2ccc(CNc3ccccc3-n3ccnc3)cc2)cc1,103317,-,-,MIC,>16 µg/mL
O=c1oc2ccc(Br)cc2c(=S)n1-c1ccc(Cl)c(Cl)c1,MY330/88,-,21 d,MIC,62.5 µM
Cc1ccc2nc(SCc3cccc(Br)c3)[nH]c2c1,MY330/88,-,-,MIC,62 µM
O=C(Nc1ccc(Br)cc1)c1ncccc1O,CNCTC MY330/88,-,-,MIC,32 µM
CCCC(C)S/C(N)=N/N=C/c1ccc2ccccc2n1,CNCTC D5/93,-,-,MIC,125 µM
NNC(=O)c1ccncc1,168-4,-,-,MIC,2.5 µg/mL
c1ccc(CSc2ncn[nH]2)cc1,MY330/88,-,-,MIC,500 µM
CCOc1c(N2CCC(C(C)(C)N)C2)c(F)cc2c(=O)c(C(=O)O)cn(C3CC3)c12,SMT,-,-,MIC,2 µg/mL
CCCCCCOc1ccc(NC(=O)OC(C)CN2CCCCC2)cc1,MY330/88,-,-,MIC,32 µM
O=C(Oc1cc(Cl)ccc1C(=O)Nc1ccc(C(F)(F)F)cc1)c1ccccc1,330/88,broth dilution,21 d,MIC,8 µM
CCCCCOc1ccc(NC(=O)OCCN2CCCCC2)cc1,MY330/88,-,-,MIC,62.5 µM
Cc1ccc2nc(SCc3ccc(C(F)(F)F)cc3)[nH]c2c1,MY330/88,-,-,MIC,32 µM
O=C(Oc1cc(Cl)ccc1C(=O)Nc1ccc(Cl)cc1)c1ccccc1,330/88,broth dilution,14 d,MIC,4 µM
CC(C)(C)n1cc(C(=O)O)c(=O)c2cc(F)c(N3CCNCC3)nc21,RG0,-,-,MIC,1 µg/mL
NNC(=O)c1ccncc1,103317,-,-,MIC,32 µg/mL
CCCCCCCCOc1ccccc1NC(=O)OCCN(C)C,MY330/88,-,-,MIC,16 µM
FC(F)(F)c1ccc(CSc2ncn[nH]2)cc1,MY330/88,-,-,MIC,250 µM
O=C(Nc1ccc(N2CCSCC2)cc1)c1ccc(-c2ccccc2)cc1,103317,-,-,MIC,>16 µg/mL
Cc1ccc2oc(=O)n(-c3ccccc3)c(=O)c2c1,CNCTC MY330/88,-,-,MIC,62.5 µM
CC[C@H]1OC(=O)[C@H](C)C(=O)[C@H](C)[C@@H](O[C@@H]2O[C@H](C)C[C@H](N(C)C)[C@H]2O)[C@](C)(OC)C[C@@H](C)C(=O)[C@H](C)[C@H]2N(CCCCn3cnc(-c4cccnc4)c3)C(=O)O[C@]12C,Isolate 969,-,-,MIC,2.5 µg/mL
Cc1cccc(C(N)=Nc2nc(-c3ccccn3)cc3ccccc23)c1,1908-3,-,-,MIC,2 µg/mL
Cc1ccc2oc(=O)n(-c3ccc(C#N)cc3)c(=O)c2c1,CNCTC MY330/88,-,-,MIC,32 µM
COc1ccc2oc(=S)n(-c3ccc(Cl)c(Cl)c3)c(=S)c2c1,MY330/88,-,14 d,MIC,62.5 µM
CCCCCCCS/C(N)=N/N=C/c1ccc2ccccc2n1,CNCTC MY66/72,-,-,MIC,4 µM
O=c1oc2ccc(Br)cc2c(=S)n1-c1ccc(Cl)cc1,MY330/88,-,14 d,MIC,16 µM
Cc1ccn2c(C(=O)NCc3ccc(N4CCN(c5ccc(C(F)(F)F)cc5)CC4)c(F)c3)c(C)nc2c1,A5,resazurin,-,MIC,>1 µg/mL
O=C(Oc1ccc(Cl)cc1C(=O)Nc1ccc(Br)cc1)c1ccccc1,330/88,broth dilution,21 d,MIC,8 µM
Cc1ccc(CNC(=O)c2ncccc2S)cc1,CNCTC MY330/88,-,-,MIC,16 µM
CCCCCCCCOc1ccc(NC(=O)OCCN2CCCCCC2)cc1,MY330/88,-,-,MIC,8 µM
COc1ccc(CSc2ncn[nH]2)cc1,MY330/88,-,-,MIC,1000 µM
Cc1cn2c(C(=O)NCc3ccc(N4CCSCC4)c(F)c3)c(C)nc2s1,2151,resazurin,-,MIC,<2 µM
COc1ccccc1NC(=O)OCC[NH+]1CCCC1,MY330/88,-,-,MIC,>1000 µM
FC(F)(F)c1cc(CSc2ncn[nH]2)cc(C(F)(F)F)c1,MY330/88,-,-,MIC,1000 µM
Cc1cn2c(C(=O)NCc3ccc(N4CCN(c5ccc(C(F)(F)F)cn5)CC4)c(F)c3)c(C)nc2s1,A5,resazurin,-,MIC,>1 µg/mL
Cc1ccc2c(=O)n(-c3ccc(Cl)c(Cl)c3)c(=O)oc2c1,CNCTC MY330/88,-,-,MIC,31 µM
Fc1cccc(-n2c(=S)oc3ccc(Br)cc3c2=S)c1,MY330/88,-,14 d,MIC,16 µM
CCCCc1ccc(NC(=O)NNC(=O)c2ccncc2)cc1,MY330/88,broth dilution,14 d,MIC100,62.5 µM
FC(F)(F)c1ccc(-n2c(=S)oc3ccc(Br)cc3c2=S)cc1,MY330/88,-,14 d,MIC,62.5 µM
O=C(Oc1ccc(Cl)cc1C(=O)Nc1cccc(Cl)c1)c1ccccc1,330/88,broth dilution,21 d,MIC,8 µM
O=C(NNC(=O)c1ccncc1)Nc1ccc(F)cc1Br,MY330/88,broth dilution,14 d,MIC100,>125 µM
Cc1cn([C@H]2C[C@H](F)[C@@H](CO)O2)c(=O)[nH]c1=O,ATCC 25291,-,-,EC50,>50 µg/mL
CCCOc1ccc(NC(=O)OCCN2CCCC2)cc1,MY330/88,-,-,MIC,125 µM

Repeating the final 7 entries:

SMILES	strain or isolate	read by	setting	read-out	value
Fc1cccc(-n2c(=S)oc3ccc(Br)cc3c2=S)c1	MY330/88	-	14 d	MIC	16 µM
CCCCc1ccc(NC(=O)NNC(=O)c2ccncc2)cc1	MY330/88	broth dilution	14 d	MIC100	62.5 µM
FC(F)(F)c1ccc(-n2c(=S)oc3ccc(Br)cc3c2=S)cc1	MY330/88	-	14 d	MIC	62.5 µM
O=C(Oc1ccc(Cl)cc1C(=O)Nc1cccc(Cl)c1)c1ccccc1	330/88	broth dilution	21 d	MIC	8 µM
O=C(NNC(=O)c1ccncc1)Nc1ccc(F)cc1Br	MY330/88	broth dilution	14 d	MIC100	>125 µM
Cc1cn([C@H]2C[C@H](F)[C@@H](CO)O2)c(=O)[nH]c1=O	ATCC 25291	-	-	EC50	>50 µg/mL
CCCOc1ccc(NC(=O)OCCN2CCCC2)cc1	MY330/88	-	-	MIC	125 µM